Compound potency records, mixed from different reports. Data source: NIAID ChemDB in PubChem.

Common to all: whole-cell or culture tests; organism: Mycobacterium avium complex; read-out: MIC

Rows are shuffled and stem from different studies.

structure	strain or isolate	value
CN(C)CC1CCN(c2c(F)cc3c(=O)c(C(=O)O)cn(C4CC4)c3c2F)C1	1760694	2 µg/mL
CC(C)N=c1cc2n(-c3ccc(Cl)cc3)c3ccccc3nc-2cc1Nc1ccc(Cl)cc1	969/HIV-	0.12 µg/mL
CC[C@@H](CO)NCCN[C@@H](CC)CO	595-5	1.9 µg/mL
NCC1CN(c2c(F)cc3c(=O)c(C(=O)O)cn(C4CC4)c3c2F)CC1c1ccccc1	1172733	16 µg/mL
NNC(=O)c1ccncc1	1069	>16 µg/mL
NCCC(O)C(N)CC(=O)NC1CNC(=O)C(C2CCN=C(N)N2)NC(=O)/C(=C/NC(N)=O)NC(=O)C(CO)NC(=O)C(CO)NC1=O	TMC 1467	0.02 µg/mL
CN1CCN(c2cc3c(cc2F)c(=O)c(C(=O)O)cn3-c2ccc(F)cc2)CC1	3219	16 µg/mL
CN[C@@H]1[C@H](O[C@H]2[C@H](O[C@H]3[C@H](O)[C@@H](O)[C@H](N=C(N)N)[C@@H](O)[C@@H]3N=C(N)N)O[C@@H](C)[C@]2(O)C=O)O[C@@H](CO)[C@H](O)[C@H]1O	13887 (serotype 14)	1.6 µg/mL
CC1CN(c2cc3c(cc2F)c(=O)c(C(=O)O)cn3-c2ccc(F)cc2F)CCN1	3215	4 µg/mL
NC[C@H]1O[C@H](O[C@H]2[C@H](O[C@@H]3O[C@H](CO)[C@@H](O)[C@H]3O)[C@@H](O)[C@H](N)C[C@@H]2N)[C@H](N)[C@@H](O)[C@@H]1O	Isolate 64	100 µg/mL
CC1COc2c(N3CCN(C)CC3)c(F)cc3c(=O)c(C(=O)O)cn1c23	CIPT 140310023	20 µg/mL
NC[C@H]1O[C@H](O[C@H]2[C@H](O)[C@@H](O[C@H]3O[C@H](CO)[C@@H](O)[C@H](N)[C@H]3O)[C@H](N)C[C@@H]2N)[C@H](O)[C@@H](O)[C@@H]1O	N-251 (HIV-)	16 µg/mL
NCC[C@H](O)C(=O)N[C@@H]1C[C@H](N)[C@@H](O[C@H]2O[C@H](CN)[C@@H](O)[C@H](O)[C@H]2O)[C@H](O)[C@H]1O[C@H]1O[C@H](CO)[C@@H](O)[C@H](N)[C@H]1O	TMC 1473	0.78 µg/mL
CN1CC2CCC1CN2c1c(F)cc2c(=O)c(C(=O)O)cn(C3CC3)c2c1F	PI12/39	2 µg/mL
CCn1cc(C(=O)O)c(=O)c2cc(F)c(N3CCNCC3)nc21	CIPT 14031003	40 µg/mL
O=C(O)c1cn(C2CC2)c2c(F)c(N3CCNCC3)c(F)cc2c1=O	PI12/39	1 µg/mL
CC[C@@H](CO)NCCN[C@@H](CC)CO	N-289 (HIV-)	8 µg/mL
NCCC[C@H](N)CC(=O)N[C@H]1CNC(=O)[C@H]([C@H]2C[C@H](O)NC(N)=N2)NC(=O)/C(=C/NC(N)=O)NC(=O)[C@H](CO)NC(=O)[C@H](CO)NC1=O	Isolate 122	100 µg/mL
CC[C@@H](CO)NCCN[C@@H](CC)CO	13034 (serotype 18)	3.2 µg/mL
CC[C@@H](CO)NCCN[C@@H](CC)CO	3219	32 µg/mL
NCC[C@H](O)C(=O)N[C@@H]1C[C@H](N)[C@@H](O[C@H]2O[C@H](CN)[C@@H](O)[C@H](O)[C@H]2O)[C@H](O)[C@H]1O[C@H]1O[C@H](CO)[C@@H](O)[C@H](N)[C@H]1O	1168	20 µg/mL
CO[C@H]1/C=C/O[C@@]2(C)Oc3c(C)c(O)c4c(O)c(c(/C=N/N5CCN(C/C=C/c6ccccc6)CC5)c(O)c4c3C2=O)NC(=O)/C(C)=C\C=C\[C@H](C)[C@H](O)[C@@H](C)[C@@H](O)[C@@H](C)[C@H](OC(C)=O)[C@@H]1C	LR541	0.015 µg/mL
NC[C@@H]1O[C@H](O[C@H]2[C@@H](O)[C@H](O[C@@H]3[C@@H](O)[C@H](N)C[C@H](N)[C@H]3O[C@H]3O[C@H](CO)[C@@H](O)C[C@H]3N)O[C@@H]2CO)[C@H](N)[C@@H](O)[C@@H]1O[C@H]1O[C@H](CO)[C@@H](O)[C@H](O)[C@@H]1O	Isolate 53	12.5 µg/mL
NC[C@H]1O[C@H](O[C@H]2[C@H](O)[C@@H](O[C@H]3O[C@H](CO)[C@@H](O)[C@H](N)[C@H]3O)[C@H](N)C[C@@H]2N)[C@H](O)[C@@H](O)[C@@H]1O	Isolate C-45	25 µg/mL
COC1CCN(c2c(F)cc3c(=O)c(C(=O)O)cn(C4CC4)c3c2F)C1	1172733	2 µg/mL
NC[C@@H]1O[C@H](O[C@H]2[C@@H](O)[C@H](O[C@@H]3[C@@H](O)[C@H](N)C[C@H](N)[C@H]3O[C@H]3O[C@H](CO)[C@@H](O)[C@H](O)[C@H]3N)O[C@@H]2CO)[C@H](N)[C@@H](O)[C@@H]1O	535/HIV+	3.12 µg/mL
O=C(O)c1cn(C2CC2)c2c(F)c(N3CC4C(CO)C4C3)c(F)cc2c1=O	PI12/39	8 µg/mL
NCC[C@H](O)C(=O)N[C@@H]1C[C@H](N)[C@@H](O[C@H]2O[C@H](CN)[C@@H](O)[C@H](O)[C@H]2O)[C@H](O)[C@H]1O[C@H]1O[C@H](CO)[C@@H](O)[C@H](N)[C@H]1O	5718	8 µg/mL
O=C(O)c1cn(C2CC2)c2c(F)c(N3CCSCC3)c(F)cc2c1=O	1988557	4 µg/mL
CN[C@@H]1[C@@H](O)[C@@H](O[C@@H]2[C@@H](O)[C@H](O[C@H]3O[C@H](CN)CC[C@H]3N)[C@@H](N)C[C@H]2N)OC[C@]1(C)O	Isolate 64	12.5 µg/mL
CO[C@H]1/C=C/O[C@@]2(C)Oc3c(C)c(O)c4c(O)c(c(/C=N/N5CCN(C)CC5)c(O)c4c3C2=O)NC(=O)/C(C)=C\C=C\[C@H](C)[C@H](O)[C@@H](C)[C@@H](O)[C@@H](C)[C@H](OC(C)=O)[C@@H]1C	711/HIV-	16 µg/mL
NCC1(O)CCN(c2c(F)cc3c(=O)c(C(=O)O)cn(N4CC4)c3c2F)C1	1915112	32 µg/mL

3 of the rows above, restated:

structure	strain or isolate	value
O=C(O)c1cn(C2CC2)c2c(F)c(N3CCNCC3)c(F)cc2c1=O	PI12/39	1 µg/mL
COC1CCN(c2c(F)cc3c(=O)c(C(=O)O)cn(C4CC4)c3c2F)C1	1172733	2 µg/mL
O=C(O)c1cn(C2CC2)c2c(F)c(N3CC4C(CO)C4C3)c(F)cc2c1=O	PI12/39	8 µg/mL